A mixed list of measured activities; the numbers were collected in NIAID ChemDB.

All rows: tests on isolated targets; agent: HIV-1; target: Integrase; read-out: IC50

Rows are shuffled and stem from different studies. Blank or dashed fields: not listed here. ICn is the concentration giving n% inhibition. a–b is a range or a potency band.

structure	mutations	method	result
COc1ccc(/C=C/C(=O)OCCc2ccc(N=C=S)cc2)cc1OC	C56S	3′ processing	>100 µM
O=C1c2c(O)c(=O)c(-c3nccs3)cn2CCN1CCCc1ccccc1F		ELISA	0.01–0.1 µM
O=C(/C=C/c1ccc(O)c(O)c1)Oc1ccc2cccc(N=C=S)c2c1		3′ processing	1 µM
Brc1ccc(CSc2nc3ccccc3s2)cc1		strand transfer	>1000 µM
COc1ccc(/C=C2\C(=O)N(c3cccc(Br)c3)N=C2C)cc1OCc1ccc(F)cc1		strand transfer	3 µM
CN1C/C(=C\c2ccc([N+](=O)[O-])c(O)c2)C(=O)/C(=C/c2ccc([N+](=O)[O-])c(O)c2)C1		3′ processing	>100 µM
O=C(NCCCCCCNC(=O)c1cc2cc3c(cc2[nH]1)OCO3)c1cc2cc3c(cc2[nH]1)OCO3		3′ processing	>100 µM
CN(C)CCCNC(=O)c1ccc2nc(-c3ccc4nc(-c5ccc(OCCCCCCCOc6ccc(-c7nc8ccc(-c9nc%10ccc(C(=O)NCCCN(C)C)cc%10[nH]9)cc8[nH]7)cc6)cc5)[nH]c4c3)[nH]c2c1		strand transfer	0.09 µM
CCOC(=O)c1cn(C)c2cc(N3CCN(c4ccccn4)CC3)c(N)cc2c1=O		3′ processing	>100 µM
O=C(CCCC[C@@H]1SC[C@@H]2NC(=O)N[C@@H]21)NCc1cn(Cc2ccc(C(=O)c3cccc(/C(O)=C/C(=O)C(=O)O)c3)cc2)nn1		strand transfer	40.7 µM
O=C(/C=C/c1ccc(O)c(O)c1)NCCCC(NC(=O)/C=C/c1ccc(O)c(O)c1)C(=O)O		3′ processing	2.9 µM
O=C1/C(=C/c2cc(O)c(O)c(O)c2)CC(C(=O)O)C/C1=C\c1cc(O)c(O)c(O)c1		strand transfer	0.3 µM
O=C(O)c1cc2cc(O)c(O)cc2[nH]1		3′ processing	6.5 µM
CC(c1ccccc1)N(Cc1ccc(F)cc1)C(=O)/C=C(\O)C(=O)O		strand transfer	~70 µM
O=C(NCCC(NC(=O)c1cc(O)c(O)c(O)c1)C(=O)O)c1cc(O)c(O)c(O)c1		3′ processing	0.54 µM
COC1=C(c2c(OC)cc3cc4cc(C)oc(=O)c4c(O)c3c2O)C(=O)c2c(O)cc(C)cc2C1=O		strand transfer	>100 µM
CCNC(=O)c1cc(F)ccc1CNC(=O)c1nc(N2CCCCS2(=O)=O)c2cccnc2c1O		strand transfer	<0.5 µM
C=c1/c(=C\c2ccc(OC)c(OCc3ccc(F)cc3)c2)c(CCOC(C)=O)nn1-c1ccccc1		strand transfer	100 µM
O=C(NCCc1ccccc1)c1cc2cc(O)c(O)cc2[nH]1		3′ processing	3.5 µM
Cc1cc2c(c3c4ccccc4n(C)c13)C(=O)N(CCN(C)C)C2=O		strand transfer	>100 µM
CC1(C)NC(=O)Cn2c1nc(C(=O)NCc1ccc(F)cc1)c(O)c2=O		ELISA	<10 µM
O=C(CCCCCNC(=O)/C(O)=C/C(=O)N(Cc1ccc(F)cc1)Cc1ccc(F)cc1)NS(=O)(=O)c1ccccc1		strand transfer	<70 µM
CCO/C(CC(=O)NCc1ccccc1)=N\Nc1ccccc1[N+](=O)[O-]		strand transfer	37.39 µM
O=C(NCc1ccccc1)c1cc2cc3c(cc2[nH]1)OCO3		3′ processing	>100 µM
Cc1cc(O)cc2c1[nH]c1c(C)cc3c(c12)C(=O)N(CCN(C)C)C3=O		strand transfer	>100 µM
CCO/C(CC(=O)NCc1ccc(Br)cc1)=N\Nc1ccccc1[N+](=O)[O-]		strand transfer	>250 µM
CC(C)C(=O)Nc1cn2ccn(Cc3ccc(F)cc3)c(=O)c2c(O)c1=O		ELISA	0.01–0.1 µM
CCN(CC)CCCC(C)Nc1ccnc2c(OC)c(Cl)ccc12		3′ processing	>300 µM
COc1ccc(/C=C2\C(=O)N(c3ccccc3)NC2C(F)(F)F)cc1OCc1ccc(F)cc1		3′ processing	>100 µM
O=C(NCCc1ccc(O)c(O)c1)c1cc2cc(O)c(O)cc2[nH]1		3′ processing	16 µM
Cc1ccc(CNC(=O)c2nc3n(c(=O)c2O)CCN(C)CC3N(C)C(=O)C(=O)N(C)C)cc1Cl		ELISA	<10 µM
COC(=O)C(CCCNC(=O)c1ccc(O)c(O)c1)NC(=O)c1ccc(O)c(O)c1		3′ processing	>10 µM
Cc1c(NC(=O)c2ccco2)c(=O)n(-c2ccccc2)n1C		3′ processing	>1000 µM
O=C1/C(=C/c2ccc(O)c(O)c2)CN(Cc2ccccc2)C/C1=C\c1ccc(O)c(O)c1		3′ processing	1.7 µM
O=C(O)c1ccccc1-c1ccc(CN2C(=O)C(=O)c3ccccc32)cc1		strand transfer	600 µM
O=C(/C=C/c1ccc(O)c(O)c1)Oc1cccc2c(N=C=S)cccc12	C65S	3′ processing	4 µM
CCn1cc(-c2cc(C(=O)OC)no2)c2ccccc21		strand transfer	>1000 µM
CC(C)(C)NS(=O)(=O)c1ccccc1-c1cccc(C(=O)Nc2ccc(CCC(=O)O)cc2)c1		strand transfer / fluorescence	0.995 µM
CCN(CC)CCCC(C)Nc1cncc2cc(F)ccc12		3′ processing	>300 µM
O=C(NCc1ccc(F)cc1)C1C(=O)N(O)C(=O)c2ccccc21		ELISA	0.056 µM
CCCC(O)CCCCCCCc1cc(O)cc(O)c1		strand transfer	>100 µM
O=C(c1cc2cc3c(cc2[nH]1)OCO3)N1CCN(C(=O)c2cc3cc4c(cc3[nH]2)OCO4)CC1		3′ processing	>100 µM
CCN(C(=O)C(=O)N(C)C)C1CN(C)CCn2c1nc(C(=O)NCc1ccc(F)c(C)c1)c(O)c2=O		ELISA	<10 µM
O=C1c2c(O)c(=O)c(-c3cnccn3)cn2CCN1Cc1ccc(Cl)c(Cl)c1		ELISA	0.01–0.1 µM
CCCNS(=O)(=O)c1cccc2cnccc12		3′ processing	863 µM
CNC(=O)c1cc(F)ccc1CNC(=O)c1nc(N2CCCCS2(=O)=O)c2cccnc2c1O		strand transfer	<0.5 µM
COc1ccc2[nH]c3c(C)cc4c(c3c2c1)C(=O)N(CCN(C)C)C4=O		strand transfer	>100 µM
CNC(=O)c1ccccc1CNC(=O)c1nc(N2CCCCS2(=O)=O)c2cccnc2c1O		strand transfer	<0.5 µM
O=C(NCc1ccc(F)cc1)c1cn2c(c(O)c1=O)C(=O)N(Cc1cccc(Cl)c1)CC2		ELISA	<0.01 µM
CCN(CC)CCCC(C)Nc1ccnc2cc(C(F)(F)F)ccc12		3′ processing	>300 µM
COC(=O)c1noc2c1CCc1ccccc1-2		strand transfer	>1000 µM
CCO/C(CC(=O)NCc1ccc(F)cc1)=N\Nc1ccccc1[N+](=O)[O-]		strand transfer	>250 µM
CN(Cc1ccc(F)c2ccccc12)C(=O)/C=C(\O)C(=O)O		strand transfer	<70 µM
CN1CCn2c3c(c(O)c2C1=O)C(=O)N(Cc1ccc(F)cc1)CC3		strand transfer	<1 µM
Cc1coc(CN2CCn3c(nc(C(=O)NCc4ccc(F)cc4)c(O)c3=O)C2(C)C)n1		ELISA	<10 µM
[N-]=[N+]=NCc1cccc(C(=O)CC(=O)C(=O)O)c1		3′ processing	43.6 µM
O=c1c(-c2ncco2)cn2ccn(Cc3cccc(Cl)c3)c(=O)c2c1O		ELISA	0.01–0.1 µM
COC(=O)/C(O)=C/C(=O)/C=C(\O)c1ccccc1		strand transfer	80 µM
Cc1csc(-c2cn3ccn(Cc4cccc(Cl)c4)c(=O)c3c(O)c2=O)n1		ELISA	<0.01 µM
O=C(/C=C/c1ccc(O)c(O)c1)OCCc1ccc(N=C=S)cc1		3′ processing	4 µM
COC(=O)[C@H](CCCCNC(=O)/C=C/c1ccc(O)c(O)c1)NC(=O)/C=C/c1ccc(O)c(O)c1		3′ processing	0.89 µM
CN(C)C(=O)c1cn2c(c(O)c1=O)C(=O)N(Cc1ccc(F)c(Cl)c1)CC2		ELISA	0.01–0.1 µM
O=C1/C(=C/c2cc(O)c(O)c(O)c2)CC/C1=C\c1cc(O)c(O)c(O)c1		strand transfer	0.9 µM
O=c1ccn2ccn(CCOc3ccccc3Cl)c(=O)c2c1O		ELISA	0.1–1 µM
CCN1C/C(=C\c2ccc([N+](=O)[O-])c(O)c2)C(=O)/C(=C/c2ccc([N+](=O)[O-])c(O)c2)C1		3′ processing	>100 µM
CNC(=O)c1cc(F)ccc1CNC(=O)c1nc(N(C)S(C)(=O)=O)c2cccnc2c1O		strand transfer	<0.5 µM
CC(C)(C)N(Cc1ccc(F)cc1)C(=O)/C=C(\O)C(=O)O		strand transfer	>70 µM
OC1/C(=C/c2ccc(Cl)c(Cl)c2)CSC/C1=C\c1ccc(Cl)c(Cl)c1		3′ processing	>100 µM
O=C(O)/C=C/c1ccc2c(c1)c(=O)c(/C(O)=C/C(=O)C(=O)O)cn2Cc1ccc(F)cc1		3′ processing	8 µM
COc1cc(NC(C)CCCN)c2ncccc2c1		3′ processing	23.5 µM
COc1ccccc1C(=O)CC(=O)/C=C(\O)C(=O)O		strand transfer	190 µM
CN(Cc1ccccc1Br)C(=O)/C=C(\O)C(=O)O		strand transfer	<70 µM
CCN(CC)CCCC(C)Nc1cncc2cc(Cl)ccc12		3′ processing	>300 µM
COc1cc(CN(C)C(=O)/C=C(\O)C(=O)O)ccc1F		strand transfer	<70 µM
Nc1ccn([C@@H]2CC[C@H](COP(=O)(O)O)O2)c(=O)n1		3′ processing	50 µM
O=C(/C=C/c1ccc(O)c(O)c1)OCCc1ccc(NC(=S)SCCO)cc1		3′ processing	3 µM
CN(C)CCN1C(=O)c2ccc3[nH]c4ccc(Cl)cc4c3c2C1=O		strand transfer	>100 µM

Repeating the final 9 entries:

{"structure": "O=C(O)/C=C/c1ccc2c(c1)c(=O)c(/C(O)=C/C(=O)C(=O)O)cn2Cc1ccc(F)cc1", "method": "3′ processing", "result": "8 µM"}
{"structure": "COc1cc(NC(C)CCCN)c2ncccc2c1", "method": "3′ processing", "result": "23.5 µM"}
{"structure": "COc1ccccc1C(=O)CC(=O)/C=C(\\O)C(=O)O", "method": "strand transfer", "result": "190 µM"}
{"structure": "CN(Cc1ccccc1Br)C(=O)/C=C(\\O)C(=O)O", "method": "strand transfer", "result": "<70 µM"}
{"structure": "CCN(CC)CCCC(C)Nc1cncc2cc(Cl)ccc12", "method": "3′ processing", "result": ">300 µM"}
{"structure": "COc1cc(CN(C)C(=O)/C=C(\\O)C(=O)O)ccc1F", "method": "strand transfer", "result": "<70 µM"}
{"structure": "Nc1ccn([C@@H]2CC[C@H](COP(=O)(O)O)O2)c(=O)n1", "method": "3′ processing", "result": "50 µM"}
{"structure": "O=C(/C=C/c1ccc(O)c(O)c1)OCCc1ccc(NC(=S)SCCO)cc1", "method": "3′ processing", "result": "3 µM"}
{"structure": "CN(C)CCN1C(=O)c2ccc3[nH]c4ccc(Cl)cc4c3c2C1=O", "method": "strand transfer", "result": ">100 µM"}